Measured values taken from patent publication US11390664B2, “Antibodies that potently neutralize hepatitis B virus and uses thereof” (priority 2015, dated 2022).

Tested on: HBV (genotype D)
Experiment: HBV spreading in humanized uPA/SCID mice, treatment from 3 weeks post-infection
Format: in vivo, uPA/SCID mice repopulated with primary human hepatocytes
Conditions: spreading phase, weeks 3 to 6 p.i.; HBC34 1 mg/kg i.p. twice per week; entecavir orally 1 μg/ml in water

Compound | HBV viremia (HBV titers)
C=C1[C@H](CO)[C@@H](O)C[C@@H]1n1cnc2c(=O)[nH]c(N)nc21 [entecavir, reference compound] | decreased
HBC34: IgG1-type fully human monoclonal antibody against HBsAg antigenic loop; VH SEQ ID NO: 41, VL SEQ ID NO: 42 | decreased
